# Source: paper PMC6270194, “Curcumin and Its Carbocyclic Analogs: Structure-Activity in Relation to Antioxidant and Selected Biological Properties” (Molecules, 2013)
# Target: T1, HIV-1 protease (Human immunodeficiency virus type 1 group M subtype B, UniProt P04585)
# T1 construct: HIV-1 protease enzyme (Sigma Aldrich); purchased Sigma Aldrich
# Experiment: HIV-1 protease inhibition assay (fluorescent substrate)
# Type: biochemical
# Settings: 10 μM compounds dissolved in DMSO
# Experimental: HIV-1 protease inhibition was performed by using a previously described method. HIV protease fluorescent substrate and HIV-1 protease enzyme (Sigma Aldrich) were used to determine HIV inhibition capacity of sample. Three primary controls i.e., blank, sample and positive control were used. Reaction mixture of 200 µL comprised of five enzyme units (5U) of HIV-1 protease along with 0.5 pmol of enzyme substrate. After addition of both enzymes and substrates, test compounds were added in different concentrations. Reaction mixture was incubated at 37 °C which leads to generation of fluorescence signal by cleaving Tyr-Pro peptide bond of the substrate. Finally reaction mixture was heated for 5 minutes at 90 °C to stop the reaction. The mixture was centrifuged at 12,000 rpm for 3 min. and supernatant was used to measure the fluorescence signal. The enzyme inhibition was calculated using the Equation (1).
substance,measurement,value
"(1E,6E)-1,7-bis(4-hydroxy-3-methoxyphenyl)-1,6-heptadiene-3,5-dione [Curcumin]",% Enzyme Inhibition HIV-I protease,48.3 ^c %

# Marks after values point to notes of the source that are not given here.
